Measurements as given in ChEMBL document CHEMBL4371047, “Effect of α-Methoxy Substitution on the Anti-HIV Activity of Dihydropyrimidin-4(3 H)-ones” (J Med Chem, 2019).

Experiments:
[1] = test system: Human immunodeficiency virus type 1 reverse transcriptase (Human immunodeficiency virus 1), Q72547 [Y181I]
[2] = test system: Human immunodeficiency virus type 1 reverse transcriptase (Human immunodeficiency virus 1), Q72547 [K103N]
[3] = test system: Human immunodeficiency virus type 1 reverse transcriptase (Human immunodeficiency virus 1), Q72547 [L100I]

| SMILES | ID50 [1] [µM] | ID50 [2] [µM] | ID50 [3] [µM] |
| --- | --- | --- | --- |
| CCC(c1nc(SC2CCCC2)[nH]c(=O)c1C)c1c(F)cccc1Cl (stereo not drawn) | 6 |  |  |
| Cc1c(O)nc(SC(C)C)nc1C(C)c1c(F)cccc1F (stereo not drawn) | 47 |  |  |
| CCC(C)Sc1nc(O)c(C)c(C(C)c2c(F)cccc2F)n1 (stereo not drawn) | 96 |  |  |
| Cc1c(C(C)c2c(F)cccc2Cl)nc(SC(C)C)[nH]c1=O (stereo not drawn) | 200 | 1.4 |  |
| CCC(c1nc(SC(C)C)[nH]c(=O)c1C)c1c(F)cccc1F (stereo not drawn) | 4.1 |  |  |
| CCC(c1nc(SC(C)C)[nH]c(=O)c1C)c1c(F)cccc1Cl (stereo not drawn) | 7.7 |  |  |
| CCC(C)Sc1nc(C(C)c2c(F)cccc2Cl)c(C)c(=O)[nH]1 (stereo not drawn) | 35 | 1.75 | 0.075 |
| CCC(c1nc(SC2CCCC2)[nH]c(=O)c1C)c1c(F)cccc1F (stereo not drawn) | 4.9 |  |  |
| CCC(C)Sc1nc(C(CC)c2c(F)cccc2F)c(C)c(=O)[nH]1 (stereo not drawn) | 4 |  |  |
| CCC(C)Sc1nc(C(CC)c2c(F)cccc2Cl)c(C)c(=O)[nH]1 (stereo not drawn) | 5.9 |  |  |
